# Single amino acid changes in Zika NS2B-NS3 and viral growth

Data from the supplement of Ni et al. 2025, doi:10.1038/s41467-025-63602-z.

Protein: NS2B and the protease part of NS3 of Zika virus strain MR766. Positions count along the chain below; NS2B spans 2-131 and NS3 starts at 132.
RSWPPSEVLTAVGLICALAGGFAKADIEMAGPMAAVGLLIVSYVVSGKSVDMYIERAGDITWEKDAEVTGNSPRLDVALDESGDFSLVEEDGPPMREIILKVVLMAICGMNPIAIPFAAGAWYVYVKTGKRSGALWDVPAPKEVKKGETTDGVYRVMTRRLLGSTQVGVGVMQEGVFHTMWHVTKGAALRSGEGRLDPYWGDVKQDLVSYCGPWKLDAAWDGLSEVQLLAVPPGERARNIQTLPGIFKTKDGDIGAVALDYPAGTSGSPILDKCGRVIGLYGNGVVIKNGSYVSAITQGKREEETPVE

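Libraries of single mutants were passaged as virus pools on Huh-7.5 cells. The effect is the change in frequency of a mutant, normalised to wild type, as a mean of three replicate libraries (two for positions 207-308).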

The number is log2 of the effect relative to wild type; negative values mean reduced growth, higher values better tolerance.
Each entry names the wild-type residue, its position and the residue put in its place.
All changes here are to leucine.

V45L read -5.07. With S46L the assay gave -3.54. G47L gave -7.87. K48L read -5.25. For S49L the result was -7.77.

With V50L the assay gave -2.63. D51L gave -6.84. M52L gave -1.15. With Y53L the assay gave -7.71. For I54L the result was -0.87.

E55L gave -3.60. R56L read -2.35. A57L gave -4.50. G58L gave -7.59. D59L gave -6.95.

I60L gave -3.91. T61L read -0.26. W62L gave -5.11. E63L gave -5.59. K64L gave 0.30.

D65L gave -7.70. With A66L the assay gave -7.85. E67L read -0.53. V68L read -6.61. For T69L the result was -7.18.

For G70L the result was -7.51. N71L gave -6.57. For S72L the result was -7.28. For P73L the result was -3.30. For R74L the result was -1.21.

With D76L the assay gave -0.22. V77L gave -5.74. A78L gave 0.63. With D80L the assay gave -7.33. E81L read -7.48.

For S82L the result was -7.37. G83L read -7.72. With D84L the assay gave -7.35. F85L read -3.99. S86L gave -6.71.

V88L read 0.51. E89L gave -2.92. With E90L the assay gave -2.58. With D91L the assay gave -4.27. G92L read -1.90.

With P93L the assay gave -1.97. For P94L the result was -2.55. For M95L the result was -0.64. With R96L the assay gave -5.05. For E97L the result was -3.24.

For I98L the result was -1.41.

Excerpt, the final 5 entries:

{"change": "P94L", "effect (log2)": -2.55}
{"change": "M95L", "effect (log2)": -0.64}
{"change": "R96L", "effect (log2)": -5.05}
{"change": "E97L", "effect (log2)": -3.24}
{"change": "I98L", "effect (log2)": -1.41}

Positions 1-103, 104-206 and 207-308 were made and measured as separate libraries.
Values above 0 are not proof of better growth: six high scorers were tested one by one, five grew less well than wild type and one about as well.
Position 1 still belongs to NS2A. In the paper, -1 or higher counts as tolerated.